The values below come from PMC3731144 (Proteins, 2012).

Common to all, as to assay: SPR
A general note: In SPR one partner is held on a chip, and binding of the other changes the refractive index at the surface.

The target of test [1] is gp120YU2 E370A (HIV-1 strain YU2).
For test [2], the target named is gp120YU2 T257A (HIV-1 strain YU2).
The target in test [3] is gp120YU2 M95A (HIV-1 strain YU2).
The target in test [4] is gp120YU2 R476A (HIV-1 strain YU2).
The target of test [5] is gp120YU2 M475A (HIV-1 strain YU2).

As usually defined, the Kd is the free concentration of one partner at which half of the binding sites on the other are occupied at equilibrium, for simple one-to-one binding. A high value points to lower affinity. Take “Hexahis-tagged 4-domain soluble CD4 (receptor)”: the Kd was 25 nM in test [1]; 72 nM in test [2]; 17 nM in test [3]; 28 nM in test [4]; 28 nM in test [5].
